A mixed list of measured activities; the numbers were collected in NIAID ChemDB.

Common to all: growth or infection tests; organism: HIV-1; cell line: CEM; read-out: EC50

ECn: concentration that inhibits the pathogen or its effect by n%.

structure	strain	changes	read by	setting	value
Cc1cc(S(=O)(=O)Nc2n[nH]c(-c3ccc(Cl)cn3)n2)c(S)cc1Cl	RF		cytopathic effect / XTT		48.2 µM
Cc1cn([C@H]2C[C@H](N=[N+]=[N-])[C@@H](CO)O2)c(=O)[nH]c1=O	LAI		RT activity		0.0024 µM
COc1cc(/C=C2/C(=O)N(C(=O)c3ccc(Cl)cc3)N=C2C)cc(OC)c1OC			cytopathic effect / XTT		>14 µM
Cc1cc(S(=O)(=O)Nc2nc(N)nc(N3N=CCC3C)n2)c(SCC(=O)O)cc1Cl	RF		cytopathic effect / XTT		>200 µM
CC(C)=CCOc1cc(NC(=S)c2ccoc2C)ccc1Cl	IIIB	RT-E138K	cytopathic effect		0.004 µg/mL
CC(C)Nc1cccnc1N1CCN(C(=O)c2cc3cc(NS(C)(=O)=O)ccc3[nH]2)CC1	A-0 (RT-L100I)	RT-L100I	cytopathic effect		0.12 µg/mL
Nc1ccn([C@H]2CC[C@@H](CO)O2)c(=O)n1	IIIB		syncytia		0.02 µM
CC(C)(C)NC(=O)[C@@H]1C[C@H](Cl)CN1C(=O)[C@@H](O)[C@H](Cc1ccccc1)NC(=O)OC1CCOC1	IIIB				<4.8 µM
Nc1nc(=O)n([C@H]2CO[C@@H](CO)S2)cc1F	IIIB		p24		0.3 µM
Cc1c(N)cccc1C(=O)N[C@@H](Cc1ccccc1)[C@H](O)C(=O)N1C[C@@H](Cl)C[C@H]1C(=O)NC(C)(C)C	IIIB				>0.5 µM
Cc1cn([C@H]2C[C@H](N=[N+]=[N-])[C@@H](CO)O2)c(=O)[nH]c1=O			antigen		~0.0001 µg/mL
Cc1cc(S(=O)(=O)Nc2nc(N)nc(N3CCOCC3)n2)c(S)cc1Cl	RF		cytopathic effect / XTT		81.1 µM
C=CCOC(C)=O			syncytia		30 µM
CC(C)=CCOc1cc(NC(=S)c2ccsc2C)ccc1Cl	IIIB	RT-Y181C	cytopathic effect		0.014 µg/mL
CC(C)=CCN1Cc2cc(Cl)cc3[nH]c(=S)n(c23)C[C@@H]1C					<0.001 µM
Cc1cn([C@@H]2O[C@H](CO[Si](C)(C)C(C)(C)C)[C@@]3(OS(=O)(=O)C(/C=C/CO)=C3N)[C@H]2O[Si](C)(C)C(C)(C)C)c(=O)[nH]c1=O	IIIB		syncytia		>2 µM
CC(C)=CCN1Cc2cc(Cl)cc3[nH]c(=S)n(c23)C[C@@H]1C	RTMC (RT D67N K70R T215F K219Q)	RT-D67N K70R T215F K219Q	p24		0.075 µg/mL
Fc1cccc(Cl)c1C1OCc2nc3ccccc3n21	TSAO-resistant (RT E138K)	RT-E138K	cytopathic effect / MTT		≥14.69 µM
CC1(CO)COC(c2c[nH]c3c(N)ncnc23)C1			XTT		5.1 µg/mL
CC(C)CN(C[C@@H](O)[C@H](Cc1ccccc1)NC(=O)O[C@H]1CCOC1)S(=O)(=O)c1ccc(N)cc1			RT activity		<0.04 µg/mL
CC(C)Nc1cccnc1N1CCN(C(=O)c2cc3ccccc3[nH]2)CC1	IIIB	RT-C181I	syncytia		7.6 µM
C=CCOC(=O)CCCCCCCCC			syncytia		25 µM
Cn1cc(C(=O)O)c(=O)c2cc(F)c(N3CC=C(c4ccccc4)CC3)c(C(F)(F)F)c21	IIIB		cytopathic effect / MTT		0.062 µM
Cc1c(O)cccc1C(=O)N[C@@H](Cc1ccccc1)[C@H](O)C(=O)N1C[C@@H](Cl)C[C@H]1C(=O)NC(C)(C)C	IIIB				<0.11 µM
CC1=NN(c2nc(N)nc(CSc3cc(Cl)c(C)cc3S(N)(=O)=O)n2)C(C)(C)C1	RF		cytopathic effect / XTT		>75.3 µM
CCOCn1c(Sc2ccccc2)c(CC)c(=O)[nH]c1=S	IIIB	RT-Y181C	syncytia		1.6 µM
Nc1ccn([C@@H]2CO[C@H](CO)S2)c(=O)n1	IIIB		p24		0.4 µM
Cc1cc(S(=O)(=O)Nc2nc(Nc3ccc(Cl)cc3)nn2C)c(S)cc1Cl	RF		cytopathic effect / XTT		>67.6 µM
C=C(CP(=O)(OCC)OCC)C1CCC2(C(=O)O)CC[C@]3(C)C(CCC4[C@@]5(C)CCC(OC(=O)CC(C)(C)C(=O)O)C(C)(C)C5CC[C@]43C)C12			ELISA	pseudotyped	0.02 µM
Cc1cn([C@@H]2O[C@H](CO[Si](C)(C)C(C)(C)C)C3(OS(=O)(=O)C=C3N)[C@H]2O[Si](C)(C)C(C)(C)C)c(=O)n(C)c1=O	IIIB		syncytia		0.018 µg/mL
CCCCn1cnnc1NS(=O)(=O)c1cc(C)c(Cl)cc1SCC(=O)O	RF		cytopathic effect / XTT		>200 µM
Cc1cn([C@@H]2O[C@H](CO[Si](C)(C)C(C)(C)C)C3(OS(=O)(=O)C=C3N)[C@H]2O[Si](C)(C)C(C)(C)C)c(=O)n(C)c1=O	IIIB	RT-K103N	cytopathic effect		0.11 µg/mL
Cc1cn([C@@H]2O[C@H](CO[Si](C)(C)C(C)(C)C)[C@]3(C(N)=CS(=O)(=O)N3C)[C@H]2O[Si](C)(C)C(C)(C)C)c(=O)n(C)c1=O		RT-E138K	cytopathic effect		>250 µM
Cc1ccnc2c1NC(=O)c1cccnc1N2C1CC1	IIIB	RT-V106A	cytopathic effect		0.8 µg/mL
Cc1cc(S(=O)(=O)Nc2nnc3cc(C(F)(F)F)cc(C)n23)c(S)cc1Cl	RF		cytopathic effect / XTT		>200 µM
Fc1cccc(F)c1C1OCc2nc3ccccc3n21	Nevirapine-resistant (RT V106A)	RT-V106A	cytopathic effect / MTT		>13.85 µM
Cc1cn([C@@H]2O[C@H](CO[Si](C)(C)C(C)(C)C)[C@]3(C(N)=CS(=O)(=O)N3C)[C@H]2O[Si](C)(C)C(C)(C)C)c(=O)n(C(=O)OC(C)(C)C)c1=O		RT-Y181C	cytopathic effect		>10 µM
Cc1cn([C@H]2C[C@H](N=[N+]=[N-])[C@@H](CO)O2)c(=O)[nH]c1=O	IIIB		syncytia		0.008 µM
Nc1ncn([C@H]2C[C@H](O)[C@@H](CO)O2)c(=O)n1	I-232		antigen		<0.1 µM
Nc1ccc(S(N)(=O)=O)cc1SSc1cc(S(N)(=O)=O)ccc1N	RF		cytopathic effect / XTT		26.7 µM
Cc1occc1C(=S)Nc1ccc(Cl)c(/C=N/OC(C)(C)C)c1	RTMC (RT D67N K70R T215F K219Q)	RT-D67N K70R T215F K219Q	p24		0.025 µg/mL
COc1cccc2c1N(C(=O)OC(C)C)C(CSC)C(=S)N2	IIIB		syncytia		0.0007 µg/mL
Cc1cn([C@@H]2O[C@H](CO[Si](C)(C)C(C)(C)C)C3(OS(=O)(=O)C=C3N)[C@H]2O[Si](C)(C)C(C)(C)C)c(=O)n(C)c1=O	IIIB	RT-E138K	syncytia		>75 µM

The last 6 rows once more:

Cc1cn([C@H]2C[C@H](N=[N+]=[N-])[C@@H](CO)O2)c(=O)[nH]c1=O ; strain: IIIB ; read by: syncytia ; value: 0.008 µM
Nc1ncn([C@H]2C[C@H](O)[C@@H](CO)O2)c(=O)n1 ; strain: I-232 ; read by: antigen ; value: <0.1 µM
Nc1ccc(S(N)(=O)=O)cc1SSc1cc(S(N)(=O)=O)ccc1N ; strain: RF ; read by: cytopathic effect / XTT ; value: 26.7 µM
Cc1occc1C(=S)Nc1ccc(Cl)c(/C=N/OC(C)(C)C)c1 ; strain: RTMC (RT D67N K70R T215F K219Q) ; changes: RT-D67N K70R T215F K219Q ; read by: p24 ; value: 0.025 µg/mL
COc1cccc2c1N(C(=O)OC(C)C)C(CSC)C(=S)N2 ; strain: IIIB ; read by: syncytia ; value: 0.0007 µg/mL
Cc1cn([C@@H]2O[C@H](CO[Si](C)(C)C(C)(C)C)C3(OS(=O)(=O)C=C3N)[C@H]2O[Si](C)(C)C(C)(C)C)c(=O)n(C)c1=O ; strain: IIIB ; changes: RT-E138K ; read by: syncytia ; value: >75 µM

Neighbouring rows are from separate reports. Blank or dashed fields: not listed here.